Test results: US20240122867A1, “CORONAL PROTEIN-COATED NANOPARTICLES AND USES THEREOF” (UNIVERSITY OF CENTRAL FLORIDA RESEARCH FOUNDATION, INC., priority 2021, published 2024)

Test system: coronal proteins on NPs
Set-up: species or system mouse
Settings: for V5 Sera_Nanoparticles Quantitative Value (Normalized Total Spectra): HBPE-NPs incubated 1 h with IAV day 5 (V5) mouse sera, 20:1 NP:sera, centrifuged and washed; for V5 Sera Alone (Control) Quantitative Value (Normalized Total Spectra): IAV day 5 (V5) mouse sera alone, no NPs (sera-only control)

B1: C-reactive protein (protein, UniProt P14847 20-225, looked up)
C-reactive protein: HEDMFKKAFVFPKESDTSYVSLEAESKKPLNTFTVCLHFYTALSTVRSFSVFSYATKKNSNDILIFWNKDKQYTFGVGGAEVRFMVSEIPEAPTHICASWESATGIVEFWIDGKPKVRKSLHKGYTVGPDASIILGQEQDSYGGDFDAKQSLVGDIGDVNMWDFVLSPEQISTVYVGGTLSPNVLNWRALNYKAQGDVFIKPQLWS
  V5 Sera_Nanoparticles Quantitative Value (Normalized Total Spectra): 2.1758
  V5 Sera Alone (Control) Quantitative Value (Normalized Total Spectra): 1.8505

B2: Kininogen-1 (protein, UniProt O08677 21-661, looked up)
Kininogen-1: EEAQEIDCNDEAVFQAVDFSLKQFNPGVKSGNQYMLHRVIEGTKTDGSPTFYSFKYLIKEGNCSAQSGLAWQDCDFKDAEEAATGECTATVGKRENEFFIVTQTCKIAPSKAPILKAYFPCIGCVHAISTDSPDLEPVLKHSIEHFNNNTDHSHLFTLRKVKSAHRQVVAGLNFDITYTIVQTNCSKERFPSLHGDCVALPNGDDGECRGNLFMDINNKIANFSQSCTLYSGDDLVEALPKPCPGCPRDIPVDSPELKEVLGHSIAQLNAENDHPFYYKIDTVKKATSQVVAGTKYVIEFIARETKCSKESNTELAEDCEIKHLGQSLDCNANVYMRPWENKVVPTVKCQALDMTEMARRPPGFSPFRSVTVQETKEGRTVSPPYIAREQEERDAETEQGPTHGHGWLHEKQIKANKNHRGHKHGHDHGHWSPRRHGLGHGHQKPHGLGHGHQLKLDYLRHQREDGDDHTHTVGHGHGHGHGHGHGHGHGHGHGHGHGHGHGHGKHTNKDKNSVKQTTQRTESLASSSEYSTTSTQMQGRTEGPTLTPPRAQPTVTSSGFQDSDFIEDVVATTPPYDTGAHDDLIPDIHVQPDSLSFKLISDFPEATSPKCPGRPWKPASWEDPNTETTEFSDFDLLDALS
  V5 Sera_Nanoparticles Quantitative Value (Normalized Total Spectra): 56.572
  V5 Sera Alone (Control) Quantitative Value (Normalized Total Spectra): 44.411

B3: Lumican (protein, UniProt P51885 19-338, looked up)
Lumican: QYYDYDIPLFMYGQISPNCAPECNCPHSYPTAMYCDDLKLKSVPMVPPGIKYLYLRNNQIDHIDEKAFENVTDLQWLILDHNLLENSKIKGKVFSKLKQLKKLHINYNNLTESVGPLPKSLQDLQLTNNKISKLGSFDGLVNLTFIYLQHNQLKEDAVSASLKGLKSLEYLDLSFNQMSKLPAGLPTSLLTLYLDNNKISNIPDEYFKRFTGLQYLRLSHNELADSGVPGNSFNISSLLELDLSYNKLKSIPTVNENLENYYLEVNELEKFDVKSFCKILGPLSYSKIKHLRLDGNPLTQSSLPPDMYECLRVANEITVN
  V5 Sera_Nanoparticles Quantitative Value (Normalized Total Spectra): 2.1758
  V5 Sera Alone (Control) Quantitative Value (Normalized Total Spectra): 0.9252

B4: Coagulation factor IX (protein, UniProt P16294 47-471, looked up)
Coagulation factor IX: YNSGKLEEFVRGNLERECIEERCSFEEAREVFENTEKTTEFWKQYVDGDQCESNPCLNGGICKDDISSYECWCQVGFEGRNCELDATCNIKNGRCKQFCKNSPDNKVICSCTEGYQLAEDQKSCEPTVPFPCGRASISYSSKKITRAETVFSNMDYENSTEAVFIQDDITDGAILNNVTESSESLNDFTRVVGGENAKPGQIPWQVILNGEIEAFCGGAIINEKWIVTAAHCLKPGDKIEVVAGEYNIDKKEDTEQRRNVIRTIPHHQYNATINKYSHDIALLELDKPLILNSYVTPICVANREYTNIFLKFGSGYVSGWGKVFNKGRQASILQYLRVPLVDRATCLRSTTFTIYNNMFCAGYREGGKDSCEGDSGGPHVTEVEGTSFLTGIISWGEECAMKGKYGIYTKVSRYVNWIKEKTKLT
  V5 Sera_Nanoparticles Quantitative Value (Normalized Total Spectra): 2.1758
  V5 Sera Alone (Control) Quantitative Value (Normalized Total Spectra): 0

B5: Cluster of Alpha-amylase 1 (protein, UniProt P00687 16-511, looked up)
Alpha-amylase 1: QYDPHTQYGRTAIVHLFEWRWVDIAKECERYLAPNGFAGVQVSPPNENIVVHSPSRPWWERYQPISYKICSRSGNEDEFRDMVNRCNNVGVRIYVDAVINHMCGVGAQAGQSSTCGSYFNPNNRDFPGVPYSGFDFNDGKCRTASGGIENYQDAAQVRDCRLSGLLDLALEKDYVRTKVADYMNHLIDIGVAGFRLDASKHMWPGDIKAILDKLHNLNTKWFSQGSRPFIFQEVIDLGGEAVSSNEYFGNGRVTEFKYGAKLGKVMRKWDGEKMSYLKNWGEGWGLMPSDRALVFVDNHDNQRGHGAGGASILTFWDARLYKMAVGFMLAHPYGFTRVMSSYYWPRNFQNGKDVNDWVGPPNNNGKTKEVSINPDSTCGNDWICEHRWRQIRNMVAFRNVVNGQPFANWWDNDSNQVAFGRGNKGFIVFNNDDWALSETLQTGLPAGTYCDVISGDKVDGNCTGIKVYVGNDGKAHFSISNSAEDPFIAIHAESKI
modifications: protein cluster
  V5 Sera_Nanoparticles Quantitative Value (Normalized Total Spectra): 2.1758
  V5 Sera Alone (Control) Quantitative Value (Normalized Total Spectra): 0.9252

B6: Alpha-amylase 1 (protein, UniProt P00687 16-511, looked up)
Alpha-amylase 1: QYDPHTQYGRTAIVHLFEWRWVDIAKECERYLAPNGFAGVQVSPPNENIVVHSPSRPWWERYQPISYKICSRSGNEDEFRDMVNRCNNVGVRIYVDAVINHMCGVGAQAGQSSTCGSYFNPNNRDFPGVPYSGFDFNDGKCRTASGGIENYQDAAQVRDCRLSGLLDLALEKDYVRTKVADYMNHLIDIGVAGFRLDASKHMWPGDIKAILDKLHNLNTKWFSQGSRPFIFQEVIDLGGEAVSSNEYFGNGRVTEFKYGAKLGKVMRKWDGEKMSYLKNWGEGWGLMPSDRALVFVDNHDNQRGHGAGGASILTFWDARLYKMAVGFMLAHPYGFTRVMSSYYWPRNFQNGKDVNDWVGPPNNNGKTKEVSINPDSTCGNDWICEHRWRQIRNMVAFRNVVNGQPFANWWDNDSNQVAFGRGNKGFIVFNNDDWALSETLQTGLPAGTYCDVISGDKVDGNCTGIKVYVGNDGKAHFSISNSAEDPFIAIHAESKI
  V5 Sera_Nanoparticles Quantitative Value (Normalized Total Spectra): 2.1758
  V5 Sera Alone (Control) Quantitative Value (Normalized Total Spectra): 0.9252

B7: 14-3-3 protein zeta/delta (protein, UniProt P63101 1-245, looked up)
14-3-3 protein zeta/delta: MDKNELVQKAKLAEQAERYDDMAACMKSVTEQGAELSNEERNLLSVAYKNVVGARRSSWRVVSSIEQKTEGAEKKQQMAREYREKIETELRDICNDVLSLLEKFLIPNASQPESKVFYLKMKGDYYRYLAEVAAGDDKKGIVDQSQQAYQEAFEISKKEMQPTHPIRLGLALNFSVFYYEILNSPEKACSLAKTAFDEAIAELDTLSEESYKDSTLIMQLLRDNLTLWTSDTQGDEAEAGEGGEN
  V5 Sera_Nanoparticles Quantitative Value (Normalized Total Spectra): 2.1758
  V5 Sera Alone (Control) Quantitative Value (Normalized Total Spectra): 2.7757

B8: Secreted phosphoprotein 24 (protein, UniProt Q8K1I3 24-203, looked up)
Secreted phosphoprotein 24: FPVYDYDPSSLQEALSASVAKVNSQSLSPYLFRATRSSLKRVNVLDEDTLVMNLEFSVQETTCLRDSGDPSTCAFQRGYSVPTAACRSTVQMSKGQVKDVWAHCRWASSSESNSSEEMMFGDMARSHRRRNDYLLGFLSDESRSEQFRDRSLEIMRRGQPPAHRRFLNLHRRARVNSGFE
  V5 Sera_Nanoparticles Quantitative Value (Normalized Total Spectra): 2.1758
  V5 Sera Alone (Control) Quantitative Value (Normalized Total Spectra): 1.8505

B9: 55 kDa erythrocyte membrane protein (protein, UniProt P70290 2-466, looked up)
55 kDa erythrocyte membrane …: TLKSSEGEGGNSMRTALSDLYLEHLLQKRNRPETSLNQSNVTTEDMYTNGSPAPGSPAHAKGQEARRVRLIQFEKITEEPMGITLKLNEKQSCTVARILHGGMIHRQGSLHVGDEILEINGTNVTNHSVDQLQKAMKETKGMISLKVIANQQSRLPALQMFMRAQFDYDPQKDNLIPCKEAGLKFVTGDIIQIINKDDSNWWQGRVEGSSKESAGLIPSPELQEWRVASVAHSAPSEAPSCSPFGKKKKCKDKYLAKHSSIFDQLDVVSYEEVVRLPAFKRKTLVLIGASGVGRSHIKNGLLSHNPEKFAYPAPYTTRPPKKSEEDGKEYHFISTEEMTKNISANEFLEFGSYQGNMFGTKFETVHQIHKQDKIAILDIEPQTLKTVRTAELSPFIVFIAPTDQGTQTEALQQLQKDSEAIRSQYAHYFDLSLVNNSVDETLKKLQEAFDQACSSPQWVPVSWVY
  V5 Sera_Nanoparticles Quantitative Value (Normalized Total Spectra): 2.1758
  V5 Sera Alone (Control) Quantitative Value (Normalized Total Spectra): 0

B10: Complement factor D (protein, UniProt P03953 26-259, looked up)
Complement factor D: ILGGQEAAAHARPYMASVQVNGTHVCGGTLLDEQWVLSAAHCMDGVTDDDSVQVLLGAHSLSAPEPYKRWYDVQSVVPHPGSRPDSLEDDLILFKLSQNASLGPHVRPLPLQYEDKEVEPGTLCDVAGWGVVTHAGRRPDVLHQLRVSIMNRTTCNLRTYHDGVVTINMMCAESNRRDTCRGDSGSPLVCGDAVEGVVTWGSRVCGNGKKPGVYTRVSSYRMWIENITNGNMTS
  V5 Sera_Nanoparticles Quantitative Value (Normalized Total Spectra): 2.1758
  V5 Sera Alone (Control) Quantitative Value (Normalized Total Spectra): 2.7757

B11: Macrophage colony-stimulating factor 1 receptor (protein, UniProt P09581 20-977, looked up)
Macrophage colony-stimulating …: APVIEPSGPELVVEPGETVTLRCVSNGSVEWDGPISPYWTLDPESPGSTLTTRNATFKNTGTYRCTELEDPMAGSTTIHLYVKDPAHSWNLLAQEVTVVEGQEAVLPCLITDPALKDSVSLMREGGRQVLRKTVYFFSPWRGFIIRKAKVLDSNTYVCKTMVNGRESTSTGIWLKVNRVHPEPPQIKLEPSKLVRIRGEAAQIVCSATNAEVGFNVILKRGDTKLEIPLNSDFQDNYYKKVRALSLNAVDFQDAGIYSCVASNDVGTRTATMNFQVVESAYLNLTSEQSLLQEVSVGDSLILTVHADAYPSIQHYNWTYLGPFFEDQRKLEFITQRAIYRYTFKLFLNRVKASEAGQYFLMAQNKAGWNNLTFELTLRYPPEVSVTWMPVNGSDVLFCDVSGYPQPSVTWMECRGHTDRCDEAQALQVWNDTHPEVLSQKPFDKVIIQSQLPIGTLKHNMTYFCKTHNSVGNSSQYFRAVSLGQSKQLPDESLFTPVVVACMSVMSLLVLLLLLLLYKYKQKPKYQVRWKIIERYEGNSYTFIDPTQLPYNEKWEFPRNNLQFGKTLGAGAFGKVVEATAFGLGKEDAVLKVAVKMLKSTAHADEKEALMSELKIMSHLGQHENIVNLLGACTHGGPVLVITEYCCYGDLLNFLRRKAEAMLGPSLSPGQDSEGDSSYKNIHLEKKYVRRDSGFSSQGVDTYVEMRPVSTSSSDSFFKQDLDKEASRPLELWDLLHFSSQVAQGMAFLASKNCIHRDVAARNVLLTSGHVAKIGDFGLARDIMNDSNYVVKGNARLPVKWMAPESIFDCVYTVQSDVWSYGILLWEIFSLGLNPYPGILVNNKFYKLVKDGYQMAQPVFAPKNIYSIMQSCWDLEPTRRPTFQQICFLLQEQARLERRDQDYANLPSSGGSSGSDSGGGSSGGSSSEPEEESSSEHLACCEPGDIAQPLLQPNNYQFC
  V5 Sera_Nanoparticles Quantitative Value (Normalized Total Spectra): 2.1758
  V5 Sera Alone (Control) Quantitative Value (Normalized Total Spectra): 1.8505
